# Results reported in patent US6416735B1 (priority 1999, dated 2002).
# Sequences of proteins named here, by UniProt entry; tags and fusion partners are left off. A change or cut given only in a name is not applied to a line headed by its entry.
# UniProt Q05941: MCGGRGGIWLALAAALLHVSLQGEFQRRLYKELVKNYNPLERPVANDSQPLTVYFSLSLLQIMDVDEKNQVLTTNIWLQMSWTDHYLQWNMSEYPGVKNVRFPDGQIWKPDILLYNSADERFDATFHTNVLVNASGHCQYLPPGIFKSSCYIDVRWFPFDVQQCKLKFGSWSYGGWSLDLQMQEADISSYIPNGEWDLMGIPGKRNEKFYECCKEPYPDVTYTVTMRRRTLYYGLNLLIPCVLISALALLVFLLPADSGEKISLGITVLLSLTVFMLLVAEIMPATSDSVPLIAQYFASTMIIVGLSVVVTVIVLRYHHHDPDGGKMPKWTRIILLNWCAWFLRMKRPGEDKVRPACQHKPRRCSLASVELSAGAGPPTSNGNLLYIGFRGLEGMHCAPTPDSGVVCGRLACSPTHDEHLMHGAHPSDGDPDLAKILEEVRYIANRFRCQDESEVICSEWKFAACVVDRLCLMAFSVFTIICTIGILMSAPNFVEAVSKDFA
# pKd: −log10 of the molar value.
# Tests used:
# α7 nAChRs = α7 nAChRs (Rattus norvegicus, UniProt Q05941); experiment: [^125I]iodo-MLA brain region binding studies; conditions: N=2, mean±SD
# α7 nAChR [1] = molecular target: T1, α7 nAChR (Rattus norvegicus, UniProt Q05941); experiment: [^125I]iodo-MLA saturation binding in rat cerebral cortex homogenates
# α7 nAChR [2] = molecular target: T1, α7 nAChR; experiment: [^125I]iodo-MLA association and dissociation binding experiments
substance,measurement,setting,value
[^125I]Iodo-methyllycaconitine,"ratio of specific binding to specific cerebellar binding, hippocampus",α7 nAChRs; hippocampus,8.2±0.9
same,"ratio of specific binding to specific cerebellar binding, striatum",α7 nAChRs; striatum,1.1±0.8
same,"ratio of specific binding to specific cerebellar binding, thalamus/hypothalamus",α7 nAChRs; thalamus/hypothalamus,4.2±1.4
same,Specific binding as % of total binding,"α7 nAChR [1]; at 100 pM, rat brain cerebral cortex homogenates",70-80%
same,Bmax,"α7 nAChR [1]; one-site model, N=6",68±3 fmol/mg protein
same,Koff (rate of dissociation),"α7 nAChR [2]; 300 uM nicotine added, three experiments",0.0012 ± 0.00017 s⁻¹
same,Kobs (apparent rate of association),"α7 nAChR [2]; approximately 0.3 nM radioligand, N=3",0.08 ± 0.02 min⁻¹
same,association t½,"α7 nAChR [2]; one-phase exponential association, N=3",10.5 ± 3.1 min
same,pKd,"α7 nAChR [2]; read-out: derived Kd (Koff/Kon), from rate constants",8.68
